In ChEMBL document CHEMBL3739372 (Bioorg Med Chem, 2015):

Legend:
Influenza B virus = experiment: Ratio of IC50 for Influenza B virus wild type neuraminidase to IC50 for Influenza B virus neuraminidase R152K mutant
Influenza A virus [1] = experiment: Ratio of IC50 for Influenza A virus H1N1 wild type neuraminidase to IC50 for Influenza A virus H1N1 neuraminidase H275Y mutant
Influenza A virus [2] = experiment: Ratio of IC50 for oseltamivir-resistant Influenza A virus H3N2 wild type neuraminidase to IC50 for oseltamivir-resistant Influenza A virus H3N2 neuraminidase E119V mutant

SMILES	Ratio IC50 (Influenza B virus)	Ratio IC50 (Influenza A virus [1])	Ratio IC50 (Influenza A virus [2])
CCOC(=O)c1cn(CC)c2ccc(-n3cc(C4=CCCCC4)nn3)cc2c1=O	1.4	3	0.13
CCOC(=O)C1=C[C@@H](OC(CC)CC)[C@H](NC(C)=O)[C@@H](N)C1 [OSELTAMIVIR]		380	27
